Compound potency records, mixed from different reports. Data source: NIAID ChemDB in PubChem.

All rows: tests in culture; organism: Mycobacterium tuberculosis

Percent inhibition refers to the dose given; in toxicity tests it is the harm to the cells. Blank or dashed fields: not listed here. Neighbouring rows are from separate reports. MIC bound comes from a single tested concentration. ECn is the concentration giving n% inhibition of infection, replication or growth.

| smiles | strain | tested at | cell line | method | endpoint | result |
|---|---|---|---|---|---|---|
| C=CCC1(C(C)Cc2ccc(OC)c(OC)c2)CC(OC)C=CC1=O | H37Rv | 12.5 µg/mL | - | BACTEC | inhibition | 50% |
| COc1ccccc1CCNCCNCC12CC3CC(CC(C3)C1)C2 | - | - | - | - | MIC | 50 µM |
| Nc1ccc(Nc2ccccc2)c(S(=O)(=O)O)c1 | H37Rv | - | - | - | MIC | >100 µg/mL |
| O=c1oc2nc3ccc(Cl)cc3c(=O)n2c2ccc(Cl)cc12 | H37Rv | - | - | BACTEC | MIC bound | >12.5 µg/mL |
| CC1CCC(NCCNc2cccc3ncccc23)CC1 | - | - | - | - | MIC | 3.13 µM |
| CCN(CC)CCOC(=O)Cc1cc(C)cc2c(=O)cc(-c3ccccc3)oc12 | H37Rv | - | - | BACTEC | MIC bound | >12.5 µg/mL |
| NC(=S)Nc1cccc(O)c1 | H37Rv | - | - | - | MIC | 50 µg/mL |
| O=C1CC(c2ccccc2Br)Oc2ccccc21 | H37Rv | - | - | - | EC50 | >12.5 µg/mL |
| O=C(O)c1ccc(O)c(O)c1 | H37Rv | - | - | - | MIC | >100 µg/mL |
| CO[C@H]1/C=C/O[C@@]2(C)Oc3c(C)c(O)c4c(O)c(c5c(c4c3C2=O)NC2(CCN(CC(C)C)CC2)N=5)=NC(=O)/C(C)=C\C=C\[C@H](C)[C@H](O)[C@@H](C)[C@@H](O)[C@@H](C)[C@H](OC(C)=O)[C@@H]1C | 2983 (rifampin-sensitive) | - | - | - | MIC | 0.025 µg/mL |
| CC(=O)NNc1nc(C)c(C(=O)C=Cc2ccccc2Cl)s1 | H37Rv | 6.25 µg/mL | - | resazurin | inhibition | 32% |
| O=C1OCCN1c1ccc(Cl)cc1 | H37Rv | - | - | - | MIC | >100 µg/mL |
| CCOC(=O)Nc1cc(NC(C)[C@@H](O)c2ccc(O)cc2)c(N)c(N)n1 | H37Rv | - | - | - | EC50 | >12.5 µg/mL |
| CCOC(=O)c1c(C(CC)C(=O)OC(C)C)cc2n(c1=O)Cc1c-2nc2ccccc2c1Cl | H37Rv | - | - | resazurin | MIC bound | >6.25 µg/mL |
| CCCCCCCC/C(C)=N\NC(N)=O | H37Rv | - | - | - | MIC | 50 µg/mL |
| CC(NCCNCCc1ccccc1F)c1cccc2ccccc12 | - | - | - | - | MIC | 25 µM |
| C[N+](C)(C)CCCCOc1ccccc1.[I-] | H37Rv | - | - | - | MIC | >100 µg/mL |
| COc1ccc(CNCCNC[C@@H]2CC[C@H]3C[C@@H]2C3(C)C)cc1OC | - | - | - | - | MIC | 50 µM |
| Cc1cccc(C)[n+]1C.[I-] | H37Rv | - | - | - | MIC | >100 µg/mL |
| CC(CNC1CCCCCCC1)NCCC(c1ccccc1)c1ccccc1 | - | - | - | - | MIC | 12.5 µM |
| C[CH2][Sn]1([CH2]C)[O]S(=O)(=O)[O]1 | H37Rv | - | - | BACTEC | MIC bound | >12.5 µg/mL |
| O=C(NCCCCN1CCCCC1)NCCCCN1CCCCC1 | H37Rv | - | - | - | MIC | >100 µg/mL |
| CCOC(=O)Nc1cc(N[C@@H](C)[C@H](O)c2ccccc2)c(N)c(N)n1 | H37Rv | - | - | - | EC50 | >12.5 µg/mL |
| CN(C)c1ccc(/C=N/NC(=O)CCCC(=O)N/N=C/c2ccc(N(C)C)cc2Cl)c(Cl)c1 | H37Rv | 12.5 µg/mL | - | BACTEC | inhibition | 43% |
| Fc1ccccc1CCNCCNCC12CC3CC(CC(C3)C1)C2 | - | - | - | - | MIC | 50 µM |
| O=C(O)c1cccc2c1sc1ccccc12 | H37Rv | - | - | - | MIC | >100 µg/mL |
| CO[C@H](C(=O)[C@@H](O)[C@@H](C)O)[C@@H]1Cc2cc3cc(O[C@H]4C[C@@H](O[C@H]5C[C@@H](O)[C@H](O)[C@@H](C)O5)[C@@H](O)[C@@H](C)O4)c(C)c(O)c3c(O)c2C(=O)[C@H]1O[C@H]1C[C@@H](O[C@H]2C[C@@H](O[C@H]3C[C@](C)(O)[C@H](O)[C@@H](C)O3)[C@H](O)[C@@H](C)O2)[C@H](O)[C@@H](C)O1 | H37Rv | 12.5 µg/mL | - | BACTEC | inhibition | 55% |
| CCCCC(=O)Oc1ccc(C2=Nc3c(cc(NC(=O)OCC)nc3N)N[C@H]2C)cc1 | H37Rv | 12.5 µg/mL | - | - | inhibition | 10% |
| COc1cc2c3c(c1O)C1(C=CC(=O)C=C1)C[C@@H]3N(C)CC2 | H37Rv | - | - | BACTEC | MIC bound | >12.8 µg/mL |
| CCCCCCCCCCCNCCNC1CCc2ccccc21 | - | - | - | - | MIC | 25 µM |
| Cc1nc(N)sc1N=Nc1cc(Br)ccc1Br | H37Rv | - | - | BACTEC | MIC bound | >6.25 µg/mL |
| CO[C@H]1/C=C/O[C@@]2(C)Oc3c(C)c(O)c4c(O)c(c(/C=N/N5CCN(C/C=C/c6ccccc6)CC5)c(O)c4c3C2=O)NC(=O)/C(C)=C\C=C\[C@H](C)[C@H](O)[C@@H](C)[C@@H](O)[C@@H](C)[C@H](OC(C)=O)[C@@H]1C | 3147 (rifampin-sensitive) | - | - | - | MIC | 0.025 µg/mL |
| CCCCc1ccc(Oc2ccc(-n3[nH]c(=O)cc3NC(=O)c3cc(OC)cc(OC)c3)cc2)cc1 | H37Rv | - | - | - | MIC | >100 µg/mL |
| FC(F)(F)c1cc(-c2ccc(C3Nc4ccccc4-n4cccc43)o2)cc(C(F)(F)F)c1 | H37Rv | - | - | BACTEC | MIC bound | >12.5 µg/mL |
| O=C(O)c1ccc2oc3ccccc3c2c1 | H37Rv | - | - | - | MIC | 25 µg/mL |
| COc1ccc(/C=C/C(=O)c2cc(Cl)ccc2O)cc1 | H37Rv | - | - | - | EC50 | >12.5 µg/mL |
| O=[N+]([O-])c1ccc(CO)cc1 | H37Rv | - | - | - | MIC | >100 µg/mL |
| NC(=O)NCCCC(N)C(=O)O | H37Rv | - | - | BACTEC | MIC bound | >12.5 µg/mL |
| Nc1ccc(N2CCNCC2)cc1 | H37Rv | - | - | - | MIC | >100 µg/mL |
| CCCCCCCCCCCCCCCCCCNCCNC1C2CC3CC(C2)CC1C3 | - | - | - | - | MIC | 50 µM |
| CN(C)CCCc1ccncc1 | H37Rv | - | - | - | MIC | >100 µg/mL |
| CC(SC(C)C(=O)NN=C1CCSCC1)C(=O)NN=C1CCSCC1 | H37Rv | - | - | BACTEC | MIC | ≥12.5 µg/mL |
| CCOC(=O)Nc1cc(NC/C(=N/O)c2ccccc2)c([N+](=O)[O-])c(N)n1 | H37Rv | - | - | - | EC50 | >12.5 µg/mL |
| O=c1cc(-c2ccccc2-c2cccc3c(=O)cc(-c4ccccc4)oc23)oc2ccccc12 | H37Rv | - | - | - | EC50 | >12.5 µg/mL |
| CO[C@H]1/C=C/O[C@@]2(C)Oc3c(C)c(O)c4c(c3C2=O)C(=O)C(CO)=C(NC(=O)/C(C)=C\C=C\[C@H](C)[C@H](O)[C@@H](C)[C@@H](O)[C@@H](C)[C@H](OC(C)=O)[C@@H]1C)C4=O | H37Rv | - | VERO | BACTEC | MIC | 6.25 µg/mL |
| O=C(/C=C/c1ccco1)c1ccc(Br)cc1O | - | 12.5 µg/mL | - | - | inhibition | 17% |
| COC(=O)C1CC23CC45CC6C(C)CN(CC7CC(OC(C)=O)(CC8=C2C1CC8)CC73C4OC(C)=O)C65O | H37Rv | - | - | BACTEC | MIC | ≥12.5 µg/mL |
| O=C(O)c1nn(-c2ccc([N+](=O)[O-])cc2)c(=O)[nH]1 | H37Rv | - | - | - | MIC | >100 µg/mL |
| O=C1N(Cl)C(=O)C(c2ccccc2)(c2ccc(F)cc2)N1Cl | H37Rv | 12.5 µg/mL | - | BACTEC | inhibition | 0% |
| Nc1ccc2nc(-c3ccccc3Cl)c(-c3ccccc3Cl)nc2c1 | H37Rv | - | - | - | MIC | 50 µg/mL |
| Cn1cc(NC(=O)Nc2cc(C(=O)O)n(C)c2)cc1C(=O)O | H37Rv | - | - | resazurin | MIC bound | >6.25 µg/mL |
| CCOC(=O)C(CC)C(=O)C(F)(F)F | H37Rv | - | - | - | MIC | >100 µg/mL |
| CCOC(=O)Nc1cc2nc(C)c(C(C)c3ccc(OC)cc3)nc2c(N)n1 | H37Rv | 12.5 µg/mL | - | - | inhibition | 66% |
| O=C1C=CC(=NN=C2c3ccccc3-c3ccccc32)C=C1 | H37Rv | - | - | BACTEC | MIC bound | >12.5 µg/mL |
| Nc1ccc2[nH]ncc2c1 | H37Rv | - | - | - | MIC | 50 µg/mL |
| Cn1cc(NC(=O)c2cc(NC(=O)CCCCCCCC(=O)Nc3cc(C(=O)Nc4cc(C(=O)NCCC(N)=[NH2+])n(C)c4)n(C)c3)cn2C)cc1C(=O)NCCC(N)=[NH2+] | H37Rv | - | - | BACTEC | MIC bound | ≤12.5 µg/mL |
| C=CCOc1ccc(Br)cc1 | H37Rv | - | - | - | MIC | >100 µg/mL |

Repeating the final 4 entries:

{"smiles": "O=C1C=CC(=NN=C2c3ccccc3-c3ccccc32)C=C1", "strain": "H37Rv", "method": "BACTEC", "endpoint": "MIC bound", "result": ">12.5 µg/mL"}
{"smiles": "Nc1ccc2[nH]ncc2c1", "strain": "H37Rv", "endpoint": "MIC", "result": "50 µg/mL"}
{"smiles": "Cn1cc(NC(=O)c2cc(NC(=O)CCCCCCCC(=O)Nc3cc(C(=O)Nc4cc(C(=O)NCCC(N)=[NH2+])n(C)c4)n(C)c3)cn2C)cc1C(=O)NCCC(N)=[NH2+]", "strain": "H37Rv", "method": "BACTEC", "endpoint": "MIC bound", "result": "≤12.5 µg/mL"}
{"smiles": "C=CCOc1ccc(Br)cc1", "strain": "H37Rv", "endpoint": "MIC", "result": ">100 µg/mL"}